{"source": "paper PMC6952414", "about": "(Nature Communications, 2020)", "tested_on": "A/Tokyo/UTHP013/2016 (H1N1 pdm)", "assay_type": "cell-based, Influenza A virus", "note": "Positions of bridges follow the written chain, without caps; N, C: chain ends. Non-standard residues stand in square brackets, D forms with d. Chains are numbered I, II in the order given. No end group written: not given here. Ahx = NCCCCCC(=O)O", "data": [{"substance": "I: MARRPVNHFA[Ahx]KK-NH2 / II: MARRPVNHFA[Ahx]K / III: MARRPVNHFA[Ahx] / IV: MARRPVNHFA[Ahx] (amide I:12-IV:C, I:13-II:C, II:12-III:C) [PVF-tet]", "values": [{"measurement": "cytopathicity of the strain in MDCK cells (in words)", "result": "reduced"}]}]}
